Values from PubChem BioAssay AID504761 (Drosophila RNAi Screening Center, 2011)
Assay: 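Insect host genes that dengue virus relies on to spread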 (primary screen). System: D.Mel-2 cells from Drosophila. Knock-down reagent: long dsRNA against Drosophila genes. Challenge: infection with dengue virus type 2; dose and infection time not stated. Read-out: 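Per well on two replicate plates, imaging gave the percent of cells positive for viral envelope protein, ranked by infection, and a nuclear count of cells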. Direction: infection score: higher = more virus-infected cells; cell count: higher = more cells in the well. Hit rule: 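Low infection ranks in the two replicates (chance level up to 0.065) followed by a retest with a 1.5-fold or larger significant decrease, p below 0.05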. Meaning of the calls: active = confirmed: knock-down lowers infection; inactive = not picked or not confirmed.
In all, the deposit lists about 22,000 reagents; this is an unselected part of those with a known target gene and a result. Of all reagents, 116 (0.52%) were called active. 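Calls depend on retest data that are not deposited; infection was ranked per plate without normalising between plates; the unit of the infection score is not given.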 Raw values are not corrected between plates. Not stated in the record: the amount of reagent, the time to read-out.

target | dsRNA | infection score, replicate 1 | infection score, replicate 2 | cell count, replicate 1 | cell count, replicate 2 | outcome
Sac1 (GeneID 38137) | DRSC08622 | 1.66 | 4.08 | 6981 | 6380 | inactive
Sac1 (GeneID 38137) | DRSC26886 | 3.1 | 11.1 | 6313 | 6346 | inactive
Vps53 (GeneID 33640) | DRSC00595 | 7.88 | 33.8 | 6634 | 5550 | inactive
CG11756 (GeneID 32074) | DRSC19424 | 4.57 | 1.58 | 6517 | 6570 | inactive
CG11756 (GeneID 32074) | DRSC30076 | 4.21 | 3.51 | 5815 | 5634 | inactive
dwg (GeneID 31265) | DRSC18766 | 9.85 | 2.34 | 1228 | 6590 | inactive
dwg (GeneID 31265) | DRSC29174 | 16.2 | 15 | 4986 | 5916 | inactive
CG8349 (GeneID 34124) | DRSC03083 | 4.49 | 14.2 | 5496 | 5425 | inactive
CG1622 (GeneID 32282) | DRSC19745 | 1.29 | 1.45 | 6495 | 6916 | inactive
CG1622 (GeneID 32282) | DRSC28342 | 1.05 | 19.8 | 1048 | 5877 | inactive
Prosap (GeneID 50225) | DRSC06382 | 5.22 | 8.27 | 6760 | 5877 | inactive
Prosap (GeneID 50225) | DRSC07081 | 15.9 | 10.8 | 5818 | 6146 | inactive
rod (GeneID 43719) | DRSC17047 | 12.4 | 5.7 | 4642 | 6469 | inactive
GlcAT-S (GeneID 34282) | DRSC02731 | 6.16 | 3.72 | 6254 | 6125 | inactive
GlcAT-S (GeneID 34282) | DRSC27771 | 1.82 | 5.43 | 6873 | 6653 | inactive
DopEcR (GeneID 38539) | DRSC08529 | 10.2 | 3.05 | 6559 | 6927 | inactive
CG16741 (GeneID 59232) | DRSC06622 | 3.07 | 3.5 | 5923 | 6456 | inactive
CG16741 (GeneID 59232) | DRSC24117 | 2.38 | 3.57 | 6038 | 5885 | inactive
CG16865 (GeneID 34788) | DRSC01904 | 20.5 | 6.97 | 5921 | 2854 | inactive
CG34174 (GeneID 5740699) | DRSC00101 | 2.57 | 0.42 | 6036 | 6440 | inactive
CG8534 (GeneID 41210) | DRSC16439 | 6.11 | 5.96 | 6200 | 6144 | inactive
comr (GeneID 37492) | DRSC04138 | 6.87 | 5.96 | 6522 | 6659 | inactive
CG17249 (GeneID 38201) | DRSC08517 | 13.1 | 20.3 | 6052 | 5594 | inactive
Dif (GeneID 35045) | DRSC03316 | 12.1 | 7.74 | 5401 | 4691 | inactive
bin (GeneID 38766) | DRSC10332 | 2.87 | 12.1 | 6331 | 6277 | inactive
bin (GeneID 38766) | DRSC29845 | 1.43 | 4.76 | 6699 | 6402 | inactive
CG42514 (GeneID 8674108) | DRSC10428 | 6.68 | 5.86 | 6404 | 6567 | inactive
CG12824 (GeneID 35727) | DRSC06173 | 3.49 | 15.8 | 6479 | 4896 | inactive
CG15376 (retired record) (GeneID 31354) | DRSC18046 | 0.48 | 7.9 | 6856 | 5459 | inactive
CG15376 (retired record) (GeneID 31354) | DRSC25097 | 1.05 | 4.55 | 6447 | 6415 | inactive
brv1 (GeneID 40116) | DRSC11076 | 2.13 | 7.62 | 5866 | 5994 | inactive
mip120 (GeneID 36499) | DRSC06960 | – | 2.5 | 398 | 839 | inactive
mip120 (GeneID 36499) | DRSC29182 | 30.6 | 29.6 | 4163 | 4252 | inactive
CG30187 (GeneID 246509) | DRSC22461 | 2.66 | 6.49 | 6233 | 6413 | inactive
rsh (GeneID 32253) | DRSC23355 | 9.77 | 6.5 | 4164 | 2938 | inactive
Apl (GeneID 59216) | DRSC10350 | 2.95 | 0.97 | 6228 | 6777 | inactive
Sdc (GeneID 37447) | DRSC04654 | 1.7 | 1.28 | 6517 | 6662 | inactive
Sdc (GeneID 37447) | DRSC25762 | 1.49 | 5.53 | 6124 | 6343 | inactive
RNaseP:RNA (GeneID 3772418) | DRSC22967 | 2.69 | 3.25 | 6323 | 6956 | inactive
Usp7 (GeneID 32169) | DRSC18909 | 3.19 | 8.91 | 6173 | 6091 | inactive
Usp7 (GeneID 32169) | DRSC19604 | 2.14 | 2.86 | 6691 | 6536 | inactive
Usp7 (GeneID 32169) | DRSC26109 | 21 | 4.1 | 5081 | 5561 | inactive
Tsp42Ei (GeneID 35618) | DRSC06189 | 16.8 | 16.9 | 5708 | 5364 | inactive
Tsp42Ei (GeneID 35618) | DRSC26994 | 7.07 | 4.65 | 6406 | 6190 | inactive
CG14324 (GeneID 42119) | DRSC14803 | 22.1 | 0.68 | 4281 | 6356 | inactive
CG14324 (GeneID 42119) | DRSC24292 | 4.06 | 4.11 | 6596 | 6503 | inactive
CG1894 (GeneID 43378) | DRSC15396 | 2.84 | 1.77 | 5640 | 6675 | inactive
CG15484 (GeneID 34682) | DRSC02494 | 7 | 8.76 | 5740 | 6613 | inactive
CG15484 (GeneID 34682) | DRSC22836 | 1.02 | 9.47 | 6299 | 6675 | inactive
Cyt-b5 (GeneID 35688) | DRSC07392 | 15.4 | 11.4 | 6431 | 1330 | inactive
SP1173 (GeneID 38744) | DRSC11277 | 6.35 | 4.17 | 6563 | 6733 | inactive
Rap1 (GeneID 38244) | DRSC08686 | 6.61 | 13.9 | 6005 | 6170 | inactive
Rap1 (GeneID 38244) | DRSC25388 | 18.4 | 8.32 | 5813 | 6607 | inactive
CG12784 (GeneID 41903) | DRSC14539 | 4.25 | 7.95 | 6325 | 6776 | inactive
CG14810 (GeneID 31131) | DRSC17693 | 0.92 | 0.53 | 6618 | 6621 | inactive
CG14810 (GeneID 31131) | DRSC17961 | 14.7 | 0.22 | 1939 | 460 | inactive
CG14810 (GeneID 31131) | DRSC25199 | 4.9 | 4.71 | 6119 | 6094 | inactive
CG14671 (GeneID 40671) | DRSC12257 | 12.6 | 2.74 | 5329 | 5833 | inactive
Muc68E (GeneID 2768990) | DRSC09146 | 1.07 | 1.04 | 6163 | 6182 | inactive
Muc68E (GeneID 2768990) | DRSC26478 | 1.95 | 5.42 | 5944 | 5724 | inactive
CG11590 (GeneID 32368) | DRSC19411 | 6.71 | 10.6 | 3948 | 5903 | inactive
CG11590 (GeneID 32368) | DRSC28405 | 19.5 | – | 3641 | 366 | inactive
Tsp42Eq (GeneID 35628) | DRSC06180 | 8.33 | 10.8 | 6073 | 5371 | inactive
CG30192 (GeneID 246510) | DRSC03977 | 3.03 | 0.6 | 5743 | 6145 | inactive
CG17154 (GeneID 39373) | DRSC10253 | 1.93 | 1.58 | 5970 | 6843 | inactive
CG10073 (GeneID 37225) | DRSC05961 | 3.48 | 1.67 | 6720 | 6466 | inactive
CG3701 (retired record) (GeneID 37568) | DRSC04408 | – | 24.7 | 447 | 4230 | inactive
CG3701 (retired record) (GeneID 37568) | DRSC04409 | 12.3 | 20.2 | 5200 | 2097 | inactive
mib2 (GeneID 35170) | DRSC02623 | 10.6 | 7.65 | 6368 | 5924 | inactive
Grl36b (GeneID 318940) | DRSC01627 | 4.31 | 1.05 | 6169 | 6091 | inactive
Poc1 (GeneID 39502) | DRSC09713 | 9.42 | 6 | 6782 | 6817 | inactive
Poc1 (GeneID 39502) | DRSC28330 | 17.4 | 7.09 | 5729 | 5079 | inactive
CG10413 (GeneID 35111) | DRSC02052 | 9.15 | 3.49 | 6742 | 6620 | inactive
Rab3-GEF (GeneID 32442) | DRSC19954 | 5.22 | 4.6 | 6344 | 6647 | inactive
Rab3-GEF (GeneID 32442) | DRSC19955 | 0.28 | 21.4 | 362 | 4564 | inactive
Rab3-GEF (GeneID 32442) | DRSC27720 | 9.3 | 8.64 | 5894 | 6657 | inactive

Ordered by “cell count, replicate 1” (high to low): 7 of the entries above.
target | dsRNA | infection score, replicate 1 | infection score, replicate 2 | cell count, replicate 1 | cell count, replicate 2 | outcome
CG14324 (GeneID 42119) | DRSC24292 | 4.06 | 4.11 | 6596 | 6503 | inactive
SP1173 (GeneID 38744) | DRSC11277 | 6.35 | 4.17 | 6563 | 6733 | inactive
Cyt-b5 (GeneID 35688) | DRSC07392 | 15.4 | 11.4 | 6431 | 1330 | inactive
CG15484 (GeneID 34682) | DRSC22836 | 1.02 | 9.47 | 6299 | 6675 | inactive
CG15484 (GeneID 34682) | DRSC02494 | 7 | 8.76 | 5740 | 6613 | inactive
CG1894 (GeneID 43378) | DRSC15396 | 2.84 | 1.77 | 5640 | 6675 | inactive
CG14324 (GeneID 42119) | DRSC14803 | 22.1 | 0.68 | 4281 | 6356 | inactive
